Compound potency records, mixed from different reports. Data source: NIAID ChemDB in PubChem.

Shared fields: whole-cell or culture tests; organism: HIV-1; measure: inhibition

Percent inhibition refers to the dose given; in toxicity tests it is the harm to the cells. Conditions beyond the fields shown may differ between rows. An empty or dashed field is not shown.

SMILES,mutations,dose,cells,setting,strain,method,value
CO[C@H]1[C@@H](O)[C@H](n2ccc(N)nc2=O)[C@@H](O)[C@H](O)[C@@H]1O,-,10 µg/mL,MT-4,-,IIIB,cytopathic effect / MTT,36.8%
Cc1cn([C@H]2C[C@H](N=[N+]=[N-])[C@@H](CO)O2)c(=O)[nH]c1=O,-,0.71 µM,HT4 + HT4-6C,-,BRU,plaque count,90%
CC(C)Oc1ccc(OC(C)C)c2c3nc4nc(nc5[nH]c(nc6nc(nc([nH]3)c12)C(SCCCC(=O)O)=C6SCCCC(=O)O)c1c(OC(C)C)ccc(OC(C)C)c51)C(SCCCC(=O)O)=C4SCCCC(=O)O,-,5 µg/mL,MAGI,-,IIIB,β-galactosidase,84%
CSc1c(C)c(SC)n2ccncc12,-,60 µM,H9,-,IIIB,MTT / p24,85%
O=C1CSC(c2c(Cl)cccc2Cl)N1n1cnnc1,-,5 µg/mL,TZM-bl,-,NL4-3,MTT,39.08%
C/C=C(\C)C(=O)O[C@@H]1[C@@H](OC(=O)c2ccccc2)[C@@H]2[C@@]3(C)CC[C@H](O[C@H]4C[C@@H](OC)[C@H](O[C@@H]5OC(C)[C@@H](O[C@@H]6OC(CO)[C@@H](O)[C@H](O)C6O)[C@H](OC)C5O)C(C)O4)C[C@@H]3CC[C@@]2(O)[C@@]2(O)CC[C@H](C(C)=O)[C@@]12C,-,30 µM,SupT1,pseudotyped,-,luciferase,25.57%
CCCCCCCCOCCCCC(=O)O,-,40 µM,H9,-,IIIB,p24 / RT activity,0%
Nc1ncnc2c1ncn2[C@H]1CC[C@@H](CO)O1,-,1 µM,MT-4,-,IIIB,ELISA,0%
CO[C@@H]1[C@@H](O)[C@@H](O)[C@H](O)[C@H](O)[C@H]1n1ccc(N)nc1=O.O=C(O)/C=C/C(=O)O,-,10 µg/mL,MT-4,-,IIIB,cytopathic effect / MTT,28.4%
Nc1ncn([C@H]2C[C@H](O)[C@@H](CO)O2)c(=O)n1,-,1 µM,CEM,-,I-232,antigen,95%
Cc1cn([C@H]2CC[C@@H](CO)O2)c(=O)[nH]c1=O,-,10 µM,MT-4,-,IIIB,ELISA,90%
OC[C@@H]1[C@@H](O)[C@H](O)[C@@H](O)CN1C/C=C/c1ccccc1,-,40 µg/mL,MOLT-4,-,IIIB,cell fusion,96%
Cc1cn([C@H]2C[C@H](N=[N+]=[N-])[C@@H](CCP(O[Si](C)(C)C)O[Si](C)(C)C)O2)c(=O)[nH]c1=O,-,400 µM,MAGI,-,NL4.3 p24 antigen,β-galactosidase,0%
O=C1N(Cc2ccc(CO)cc2)[C@H](Cc2ccccc2)[C@H](O)[C@@H](O)[C@@H](Cc2ccccc2)N1Cc1ccc(CO)cc1,-,0.25 µM,PBMC,-,Clinical isolate D1,p24,90%
Cc1cn([C@H]2C[C@H](N=[N+]=[N-])[C@@H](CO)O2)c(=O)[nH]c1=O,-,50 µg/mL,H9,-,-,p24 / ELISA,90%
COC(=O)C(Cc1c[nH]c2ccccc12)N=C=S,-,56.33 µg/mL,CEM-GFP,-,NL4-3,MTT,1%
CNc1ncnc2c1ncn2[C@@H]1C[C@H](CO)[C@H]1CO,-,500 µM,ATH8,-,IIIB,cytopathic effect / trypan blue,14%
Cc1coc(N2C(=O)CSC2c2c(Cl)ncnc2Cl)n1,-,5 µg/mL,TZM-bl,-,NL4-3,MTT,<5%
C/C=C(\C)C(=O)O[C@@H]1[C@@H](OC(=O)/C(C)=C/C)[C@]2(C)[C@@H](C(C)=O)CC[C@]2(O)[C@]2(O)CC[C@H]3C[C@@H](O[C@H]4C[C@@H](OC)[C@H](O[C@@H]5OC(C)[C@@H](O[C@@H]6OC(CO)[C@@H](O)[C@H](O)C6O)[C@H](OC)C5O)C(C)O4)CC[C@]3(C)[C@@H]12,-,30 µM,SupT1,pseudotyped,-,luciferase,39.74%
COc1cc(OC)nc(N2C(=O)CSC2c2c(Cl)ncnc2Cl)n1,-,5 µg/mL,TZM-bl,-,NL4-3,MTT,96.97%
O=c1ccn([C@@H]2C[C@H](CO)[C@H]2CO)c(=O)[nH]1,-,500 µM,ATH8,-,IIIB,cytopathic effect / trypan blue,5%
COC(=O)[C@H]1[C@@H]2C[C@@H](O[C@@H]3O[C@H](C)[C@@H](O)[C@H](N)[C@@H]3O)/C=C/C=C/C=C/C=C/C=C/C=C/C=C/[C@H](C)[C@@H](O)[C@H](C)[C@H](C)OC(=O)C[C@H](O)C[C@H](O)[C@@H](O)CC[C@H](O)C[C@H](O)C[C@](O)(C[C@@H]1O)O2,-,5 µg/mL,H9,-,IIIB,antigen,90%
CCOC(=O)c1c(C(C)C)c(C#N)c(=N)n2ccccc12,-,8 µM,MT-4,-,-,cytopathic effect,100%
C[C@@H]1[C@H](O)[C@@H](C)/C=C/C=C/C=C/C=C/C=C/C=C/C=C/[C@H](O[C@@H]2O[C@H](C)[C@@H](O)[C@H](N)[C@@H]2O)CC2O[C@](O)(CC(O)C(O)CCC(O)CC(O)CC(O)CC(=O)O[C@H]1C)CC(O)C2C(=O)O.O=S(=O)(O)O,-,4 µg/mL,MT-4,-,LAV,fluorescence,79.6%
Cc1ccnc2c1NC(=O)c1cccnc1N2C1CC1,-,5 µg/mL,MAGI,-,-,β-galactosidase,85%
O=S1CCC(N=C=S)CC1,-,1 µM,CEM-GFP,-,NL4-3,MTT,48.56%
Nc1ncnc2c1ncn2[C@@H]1C[C@H](CO)[C@H]1CO,-,100 µM,ATH8,-,IIIB,cytopathic effect / trypan blue,76%
CCCCCCCCCCCCCC(=O)OC[C@@H](COP(=O)(O)OC[C@@H]1CC[C@H](n2ccc(N)nc2=O)O1)OC(=O)CCCCCCCCCCCCC,-,10 µM,MT-4,-,IIIB,ELISA,97%
Cc1ccc(C(=O)Nc2ccc(S(=O)(=O)O)c3cc(S(=O)(=O)O)cc(S(=O)(=O)O)c23)cc1NC(=O)c1cccc(NC(=O)Nc2cccc(C(=O)Nc3cc(C(=O)Nc4ccc(S(=O)(=O)O)c5cc(S(=O)(=O)O)cc(S(=O)(=O)O)c45)ccc3C)c2)c1,-,50 µg/mL,ATH8,-,LAV Laboratory strain,cytopathic effect,100%
CCC[C@@]1(CCc2ccccc2)CC(O)=C([C@H](CC)c2cccc(NS(=O)(=O)c3ccc(C(F)(F)F)cn3)c2)C(=O)O1,-,0.16 µM,H9,-,IIIB,p24,90%
CCOCn1c(Cc2ccccc2)c(C(C)C)c(=O)[nH]c1=O,-,0.038 µM,MT-4,-,IIIB,cytopathic effect / MTT,70%
Nc1nc2c(ncn2[C@H]2CC[C@@H](CO)O2)c(=O)[nH]1,-,10 µM,CEM13 + CEM,-,LAV-Bru,ELISA,90%
Cc1nc2cc3nc4ccccc4cc3cc2s1,-,10 µg/mL,MT-4,-,IIIB,trypan blue,14.3%
Nc1ncnc2c1ncn2[C@H]1CC[C@@H](CO)O1,-,10 µM,ATH8,-,IIIB,cytopathic effect / trypan blue,99%
COc1nc(C)nc(N2C(=O)CSC2c2c(Cl)ncnc2Cl)n1,-,5 µg/mL,TZM-bl,-,NL4-3,MTT,<5%
Cc1cn([C@H]2C[C@H](N=[N+]=[N-])[C@@H](CCP(=O)(O)O)O2)c(=O)[nH]c1=O,-,200 µM,MT-4,-,IIIB,cytopathic effect / propidium iodide,0%
Nc1ncnc2c1ncn2C[C@H](O)CO,-,100 µg/mL,ATH8,-,LAV Laboratory strain,cytopathic effect,0%
C/C=C(\C)C(=O)O[C@@H]1[C@@H](OC(=O)c2ccccc2)[C@@H]2[C@@]3(C)CC[C@H](O[C@H]4C[C@@H](OC)[C@H](O[C@@H]5OC(C)[C@@H](O[C@@H]6OC(CO)[C@@H](O[C@@H]7OC(CO)[C@@H](O)[C@H](O)C7O)[C@H](O)C6O)[C@H](OC)C5O)C(C)O4)CC3=CC[C@@]2(O)[C@@]2(O)CC[C@H](C(C)=O)[C@@]12C,-,30 µM,SupT1,pseudotyped,-,luciferase,41.32%
CCOC(=O)N1CCC(CC2C(=O)N(c3ccccc3)c3ccccc32)CC1,-,11.3 µM,MT-2,-,RF,plaque count,52%
Nc1cccc(CN2C(=O)N(Cc3cccc(N)c3)[C@H](Cc3ccccc3)[C@H](O)[C@@H](O)[C@H]2Cc2ccccc2)c1,PR-D60E I84V,1.26 µM,MT-2,-,THAI (PR-D60E I84V),virus yield,90%
CC(N=C=S)c1ccccc1,-,0.5 µM,CEM-CCR5,-,NL4-3,MTT,43.81%
C/C=C(\C)C(=O)O[C@@H]1[C@@H](OC(C)=O)[C@H]2[C@@H](CC=C3C[C@@H](O[C@H]4C[C@@H](OC)[C@H](O[C@@H]5OC(C)[C@@H](O[C@@H]6OC(CO)[C@@H](O)[C@H](O)C6O)[C@H](OC)C5O)C(C)O4)CC[C@@]32C)[C@@]2(O)CC[C@H](C(C)=O)[C@@]12C,-,30 µM,SupT1,pseudotyped,-,luciferase,16.48%
CO[C@@H]1[C@@H](O)[C@@H](O)[C@H](O)[C@H](O)[C@H]1n1ccc(N)nc1=O,-,10 µg/mL,MT-4,-,IIIB,cytopathic effect / MTT,46.9%
Nc1ncnc2c1ncn2[C@@H]1O[C@H](CO)[C@@H](O)[C@@H]1O,-,1 µg/mL,ATH8,-,LAV Laboratory strain,cytopathic effect,10%
C/C=C(\C)C(=O)O[C@@H]1[C@@H](OC(=O)/C(C)=C/C)[C@]2(C)[C@@H](C(C)=O)CC[C@@]23O[C@]32CC[C@H]3C[C@@H](O[C@H]4C[C@@H](OC)C(O[C@@H]5OC(C)C(O[C@@H]6OC(CO)C(O)[C@H](O)C6O)[C@H](OC)C5O)C(C)O4)CC[C@]3(C)[C@@H]12,-,30 µM,SupT1,pseudotyped,-,luciferase,39.26%
Cc1cc(C)nc(N2C(=O)CSC2c2c(Cl)ncnc2Cl)n1,-,5 µg/mL,TZM-bl,-,NL4-3,MTT,71.65%
COC(=O)C(C)N=C=S,-,1 µM,CEM-GFP,-,NL4-3,MTT,61.67%
CN1CC=C(CC2(CC3=CCN(C)CC3)C(=O)N3c4ccccc4CCc4cccc2c43)CC1,-,11 µM,MT-2,-,RF,plaque count,74%
Cc1cn([C@H]2C[C@H](N=[N+]=[N-])[C@@H](CO)O2)c(=O)[nH]c1=O,-,0.0025 µg/mL,Monocytes + Monocyte,-,D747,p24 / ELISA,90%
COc1ccc(CN[C@@H](C(=O)N[C@H]2c3ccccc3C[C@H]2O)[C@H](O)[C@H](Cc2ccccc2)NC(=O)[C@@H](NC(=O)OCc2ccccc2)C(C)(C)C)cc1,-,0.15 µM,Primary monocytes + Monocyte,-,D747,p24,90%
Cc1cn([C@H]2C[C@H](N=[N+]=[N-])[C@@H](CO)O2)c(=O)n(N)c1=O,-,2.5 µM,PBMC,-,BRU,p24 / RT activity,90%
C[C@H]1[C@H](O)[C@@H](C)/C=C/C=C/C=C/C=C/C=C/C=C/C=C/[C@H](O[C@@H]2O[C@H](C)[C@@H](O)[C@H](N)[C@@H]2O)C[C@@H]2O[C@](O)(C[C@@H](O)C[C@@H](O)CC[C@H](O)[C@@H](O)C[C@@H](O)CC(=O)O[C@H]1C)C[C@H](O)[C@H]2C(=O)O,-,10 µg/mL,H9,-,-,p24 / ELISA,83%
C/C=C(\C)C(=O)O[C@@H]1[C@@H](OC(=O)c2ccccc2)[C@]2(C)[C@@H](C(C)=O)CC[C@]2(O)[C@]2(O)CC[C@H]3C[C@@H](O[C@H]4C[C@@H](OC)C(O[C@@H]5OC(C)C(O[C@@H]6OC(CO)C(O[C@@H]7OC(CO)C(O)[C@H](O)C7O)[C@H](O)C6O)[C@H](OC)C5O)C(C)O4)CC[C@]3(C)[C@@H]12,-,30 µM,SupT1,pseudotyped,-,luciferase,29.09%
CO[C@@H]1[C@@H](O)[C@@H](O)[C@H](O)[C@H](O)[C@H]1n1cnc2c(N)ncnc21,-,10 µg/mL,MT-4,-,IIIB,cytopathic effect / MTT,29.4%
Cc1cn([C@H]2C[C@H](N=[N+]=[N-])[C@@H](CO)O2)c(=O)[nH]c1=O,-,10 µM,ATH8,-,IIIB,cytopathic effect / trypan blue,100%
Nc1nc2c(ncn2[C@H]2CC[C@@H](CO)O2)c(=O)[nH]1,-,10 µM,MT-2,-,IIIB,syncytia,98%
Nc1ncnc2c1ncn2[C@H]1CC[C@@H](CO)O1,-,7 µM,MT-2,-,IIIB,cytopathic effect / XTT,99%
Nc1nc2c(ncn2[C@H]2C=C[C@@H](CO)C2)c(=O)[nH]1,-,4.36 µg/mL,MT-2,-,-,cytopathic effect / XTT,16.5%
CO[C@@H]1C(O)[C@H](O[C@@H]2C(C)O[C@@H](O[C@H]3CC[C@@]4(C)C(=CC[C@@H]5[C@@H]4[C@H](OC(C)=O)[C@@H](OC(=O)c4ccccc4)[C@]4(C)[C@@H](C(C)=O)CC[C@]54O)C3)C[C@H]2OC)OC(C)[C@H]1O[C@@H]1OC(CO)[C@@H](O[C@@H]2OC(CO)[C@@H](O)[C@H](O)C2O)[C@H](O)C1O,-,30 µM,SupT1,pseudotyped,-,luciferase,47.75%
O=C1N(c2ccccc2)c2ccccc2C1(CC1=CCN(CC2CC2)CC1)CC1=CCN(CC2CC2)CC1,-,11 µM,MT-2,-,RF,plaque count,13%
Cc1cn([C@H]2C[C@H](F)[C@@H](CO)O2)c(=O)[nH]c1=O,-,0.021 µM,MT-4,-,IIIB,p24 / ELISA,95%

Again, the opening 5 rows:

CO[C@H]1[C@@H](O)[C@H](n2ccc(N)nc2=O)[C@@H](O)[C@H](O)[C@@H]1O ; dose: 10 µg/mL ; cells: MT-4 ; strain: IIIB ; method: cytopathic effect / MTT ; value: 36.8%
Cc1cn([C@H]2C[C@H](N=[N+]=[N-])[C@@H](CO)O2)c(=O)[nH]c1=O ; dose: 0.71 µM ; cells: HT4 + HT4-6C ; strain: BRU ; method: plaque count ; value: 90%
CC(C)Oc1ccc(OC(C)C)c2c3nc4nc(nc5[nH]c(nc6nc(nc([nH]3)c12)C(SCCCC(=O)O)=C6SCCCC(=O)O)c1c(OC(C)C)ccc(OC(C)C)c51)C(SCCCC(=O)O)=C4SCCCC(=O)O ; dose: 5 µg/mL ; cells: MAGI ; strain: IIIB ; method: β-galactosidase ; value: 84%
CSc1c(C)c(SC)n2ccncc12 ; dose: 60 µM ; cells: H9 ; strain: IIIB ; method: MTT / p24 ; value: 85%
O=C1CSC(c2c(Cl)cccc2Cl)N1n1cnnc1 ; dose: 5 µg/mL ; cells: TZM-bl ; strain: NL4-3 ; method: MTT ; value: 39.08%